From US9187529B2 (priority 2011, dated 2015)

Conditions: rabbits, 200 μl/day of 1.0 μg/mL peptide in aqueous gel, examined after 7 days

CC(C)C[C@H](NC(=O)[C@H](CC(=O)O)NC(=O)[C@H](CCCCN)NC(=O)[C@H](Cc1c[nH]cn1)NC(=O)[C@@H]1CCCN1C(=O)[C@H](CCCCN)NC(=O)[C@H](Cc1ccc(O)cc1)NC(=O)[C@@H](NC(=O)[C@H](CCCCN)NC(=O)[C@H](CCCCN)NC(=O)[C@H](CCCCN)NC(=O)[C@@H]1CCCN1C(=O)[C@H](CCCCN)NC(=O)[C@@H](N)CO)[C@@H](C)O)C(=O)N[C@@H](CO)C(=O)N[C@@H](Cc1c[nH]cn1)C(=O)NCC(=O)N[C@@H](CO)C(=O)N[C@@H](C)C(=O)N[C@@H](CCCCN)C(=O)N[C@@H](CCCCN)C(=O)N[C@@H](CCCCN)C(=O)O
signs of inflammation and vaginal irritation: No irritation or inflammation was observed
